Measured values from several laboratories, pooled; numbers as filed in NIAID ChemDB.

Shared fields: growth or infection tests; agent: Aspergillus niger; read by: broth dilution; endpoint: MIC

Rows are shuffled and stem from different studies. Blank or dashed fields: not listed here.

CCCOC(=O)CC(c1nccn1C)c1nccn1C ; strain or isolate: ATCC 16404 ; setting: 48 h ; result: >512 µg/mL
Cc1nc2c(s1)C(=O)C(Nc1ccc(F)cc1)=C(Cl)C2=O ; strain or isolate: KCTC 1231 ; result: 25 µg/mL
COc1cccc(OCC(=O)c2ccccc2)c1 ; strain or isolate: ATCC 16404 ; setting: 72 h ; result: >125 µg/mL
CC(=O)OC12CCC(C(=O)C1)C1C(=O)N(CCCCN3CCN(c4ccc(F)cc4)CC3)C(=O)C12 ; strain or isolate: DSM 1988 ; result: >100 µM
Cc1nc2c(s1)C(=O)C(Nc1ccc(Cl)cc1)=C(Cl)C2=O ; strain or isolate: KCTC 1231 ; result: 25 µg/mL
c1ccc(C2=NN(c3ccccc3)C(c3ccc(OCCCCCCCCCCCCOc4ccc(C5CC(c6ccccc6)=NN5c5ccccc5)cc4)cc3)C2)cc1 ; result: 8 µg/mL
CCc1c(OC)ccc2sc(C)nc12 ; strain or isolate: KCTC 1231 ; result: >100 µg/mL
Cn1cnc(-c2ccccc2)c1 ; strain or isolate: ATCC 16404 ; setting: 48 h ; result: >512 µg/mL
O=c1c(N2CCOCC2)c(N2CCN(S(=O)(=O)Cc3ccccc3)CC2)cnn1-c1ccccc1 ; strain or isolate: ND254 ; result: 0.78 µg/mL
O=C(NN1C(=O)/C(=C/c2cc3ccccc3nc2Cl)N=C1c1ccccc1)c1ccc(F)cc1 ; strain or isolate: MTCC 282 ; result: 1000 µg/mL
O=C(CSc1nnc(-c2ccc(N=Cc3cccs3)cc2)o1)Nc1ccccc1Cl ; strain or isolate: MTCC 282 ; result: 500 µg/mL
O=C(NN1C(=O)/C(=C/c2cc3ccccc3nc2Cl)N=C1c1ccccc1)c1ccc(Cl)cc1O ; strain or isolate: MTCC 282 ; result: 250 µg/mL
O=C(CSc1nnc(-c2ccc(N=Cc3cccs3)cc2)o1)Nc1ccc(Cl)c(Cl)c1 ; strain or isolate: MTCC 282 ; result: 500 µg/mL
N=c1oc2ccccc2c2csc(N)c12 ; result: 16 µg/mL
Cc1ccccc1NC(=O)CSc1nnc(-c2ccc(N=Cc3cccs3)cc2)o1 ; strain or isolate: MTCC 282 ; result: 100 µg/mL
COc1ccccc1N1CCN(CCCCN2C(=O)C3C4CCC(OC(C)=O)(CC4=O)C3C2=O)CC1 ; strain or isolate: DSM 1988 ; result: >100 µM
CC(C)S(=O)(=O)N1CCN(c2cnn(-c3cc(F)cc(F)c3)c(=O)c2OC2CCC(F)C2)CC1 ; strain or isolate: ND254 ; result: 0.06 µg/mL
COC(=O)c1c(N)oc2c1cc(O)c1sc(C)nc12 ; strain or isolate: KCTC 1231 ; result: 100 µg/mL
CC(=O)OC12CCC(C(=O)C1)C1C(=O)N(CCCCN3CCN(c4ccccn4)CC3)C(=O)C12 ; strain or isolate: DSM 1988 ; result: >100 µM
O=C(COc1ccccc1)c1ccccc1 ; strain or isolate: ATCC 16404 ; setting: 48 h ; result: >125 µg/mL
O=C(NN1C(=O)/C(=C/c2cc3ccccc3nc2Cl)N=C1c1ccccc1)c1cccc([N+](=O)[O-])c1 ; strain or isolate: MTCC 282 ; result: 500 µg/mL
CN[C@@H]1[C@H](O[C@H]2[C@H](O[C@H]3[C@H](O)[C@@H](O)[C@H](N=C(N)N)[C@@H](O)[C@@H]3N=C(N)N)O[C@@H](C)[C@]2(O)C=O)O[C@@H](CO)[C@H](O)[C@H]1O ; strain or isolate: ATCC 16404 ; setting: 48 h ; result: <4 µg/mL
O=C(CSc1nnc(-c2ccc(N=Cc3cccs3)cc2)o1)Nc1ccc(Cl)cc1 ; strain or isolate: MTCC 282 ; result: 250 µg/mL
O=C(NN1C(=O)/C(=C/c2cc3ccccc3nc2Cl)N=C1c1ccccc1)c1ccc(Cl)cc1 ; strain or isolate: MTCC 282 ; result: 100 µg/mL
c1ccc(C2=NN(c3ccccc3)C(c3ccc(OCCCCCCCCOc4ccc(C5CC(c6ccccc6)=NN5c5ccccc5)cc4)cc3)C2)cc1 ; result: 16 µg/mL
COc1cccc(NC(=O)CSc2nnc(-c3ccc(N=Cc4cccs4)cc3)o2)c1 ; strain or isolate: MTCC 282 ; result: 1000 µg/mL
C[C@H]1[C@H](O)[C@@H](C)/C=C/C=C/C=C/C=C/C=C/C=C/C=C/[C@H](O[C@@H]2O[C@H](C)[C@@H](O)[C@H](N)[C@@H]2O)C[C@@H]2O[C@](O)(C[C@@H](O)C[C@@H](O)CC[C@H](O)[C@@H](O)C[C@@H](O)CC(=O)O[C@H]1C)C[C@H](O)[C@H]2C(=O)O ; result: 1.75 µg/mL
CC(=O)OC12CCC(C(=O)C1)C1C(=O)N(CCCN3CCN(c4ccccn4)CC3)C(=O)C12 ; strain or isolate: DSM 1988 ; result: >100 µM
C[C@H]1[C@H](O)[C@@H](C)/C=C/C=C/C=C/C=C/C=C/C=C/C=C/[C@H](O[C@@H]2O[C@H](C)[C@@H](O)[C@H](N)[C@@H]2O)C[C@@H]2O[C@](O)(C[C@@H](O)C[C@@H](O)CC[C@H](O)[C@@H](O)C[C@@H](O)CC(=O)O[C@H]1C)C[C@H](O)[C@H]2C(=O)O ; strain or isolate: 64028 ; result: 0.015 µg/mL
C[C@@H](c1ncncc1F)[C@](O)(Cn1cncn1)c1ccc(F)cc1F ; strain or isolate: 27 ; result: 1 µg/mL
O=C(Nc1nc2ccccc2[nH]1)c1cn[nH]c1C(=O)c1ccc(Cl)cc1 ; result: 0.625 µg/mL
Cc1nc2c(s1)C(=O)C(Nc1ccc(I)cc1)=C(Cl)C2=O ; strain or isolate: KCTC 1231 ; result: 3.2 µg/mL
O=C(/C=C/c1ccc(OCCCCCCOc2ccc(/C=C/C(=O)c3ccccc3)cc2)cc1)c1ccccc1 ; result: 8 µg/mL
O=C(COc1cccc(F)c1)c1ccccc1 ; strain or isolate: ATCC 16404 ; setting: 72 h ; result: >125 µg/mL
O=C(CSc1nnc(-c2ccc(N=Cc3cccs3)cc2)o1)Nc1ccc([N+](=O)[O-])cc1 ; strain or isolate: MTCC 282 ; result: 250 µg/mL
O=C(/C=C/c1ccc(OCCCCCCCCCCOc2ccc(/C=C/C(=O)c3ccccc3)cc2)cc1)c1ccccc1 ; result: 4 µg/mL

For reference, 3 entries again:

structure | strain or isolate | setting | result
O=C(CSc1nnc(-c2ccc(N=Cc3cccs3)cc2)o1)Nc1ccc([N+](=O)[O-])cc1 | MTCC 282 |  | 250 µg/mL
C[C@H]1[C@H](O)[C@@H](C)/C=C/C=C/C=C/C=C/C=C/C=C/C=C/[C@H](O[C@@H]2O[C@H](C)[C@@H](O)[C@H](N)[C@@H]2O)C[C@@H]2O[C@](O)(C[C@@H](O)C[C@@H](O)CC[C@H](O)[C@@H](O)C[C@@H](O)CC(=O)O[C@H]1C)C[C@H](O)[C@H]2C(=O)O |  |  | 1.75 µg/mL
Cc1ccccc1NC(=O)CSc1nnc(-c2ccc(N=Cc3cccs3)cc2)o1 | MTCC 282 |  | 100 µg/mL